Compound potency records, mixed from different reports. Data source: NIAID ChemDB in PubChem.

Shared fields: growth or infection tests

Inhibition is in % at the dose shown (toxicity tests: loss of growth or viability).

| compound | organism | measure | tested at | method | strain or isolate | cells | value |
|---|---|---|---|---|---|---|---|
| Nc1c(S(=O)(=O)[O-])cc2cc(S(=O)(=O)[O-])ccc2c1O | Herpes simplex virus | inhibition | 50 µg/mL | cytopathic effect |  | Human conjunctiva cells | 0% |
| CCOC(=O)c1cnc(NCCCCNc2ccnc3cc(Cl)ccc23)nc1C | Cryptococcus gattii | MIC99 |  |  | 196L/03 |  | 8 µg/mL |
| NCCS(=O)(=O)O | Adenovirus | inhibition | 5 µg/mL | cytopathic effect | TYPE 3 | Human embryonic lung cells | 10% |
| CC(C)(O)c1cn(-c2ccc([N+](=O)[O-])cc2)nn1 | Candida parapsilosis | inhibition | 2048 µg/mL | broth dilution | URM 4984 |  | 0% |
| Oc1ccccc1N=Cc1ccccc1 | Cryptococcus gattii | MIC99 |  |  | L 27/01 |  | 32 µg/mL |
| NCS(=O)(=O)O | Herpes simplex virus | inhibition | 10 µg/mL | cytopathic effect |  | Human amnion AV3 cells | 70% |
| Oc1ccccc1N=Cc1cccc(O)c1O | Cryptococcus gattii | MIC99 |  |  | 23/10993 |  | 4 µg/mL |
| Cc1ccc(-n2cc(C(C)(C)O)nn2)cc1C | Candida albicans | inhibition | 2048 µg/mL | broth dilution | URM 4609 |  | 0% |
| CC(=O)N[C@H]1[C@H]([C@H](O)[C@H](O)CO)OC(C(=O)O)=C[C@@H]1N=C(N)N | Influenza A virus | EC50 |  |  | Influenza A/Victoria/3/75 (H3N2) | MDCK | 0.41 µM |
| O=c1[nH]c(=O)n([C@@H]2O[C@H](CO)[C@@H](O)[C@@H]2O)cc1/C=C/Cl | Varicella zoster virus | inhibition | 0.01 µg/mL | plaque count | Ohtomo | HELF | 100% |
| Cc1cc(CCCOc2c(C)cc(-c3noc(C(F)(F)F)n3)cc2C)on1 | Rhinovirus | EC50 |  | cytopathic effect / visual reading | Isolate 22 | OHIO HELA-I | 0.03 µg/mL |
| O=S(=O)(O)c1ccc2cc(O)c(S(=O)(=O)O)cc2c1 | Herpes simplex virus | inhibition | 5 µg/mL | cytopathic effect |  | Human conjunctiva cells | 0% |
| O=c1[nH]c(=O)n([C@@H]2O[C@H](CO)[C@@H](O)[C@@H]2O)cc1/C=C/Br | Varicella zoster virus | inhibition | 0.01 µg/mL | plaque count | Asahikawa | HELF | 100% |
| O=C(Nc1c(S(=O)(=O)[O-])cc2cc(S(=O)(=O)[O-])cc(O)c2c1O)c1ccccc1 | Herpes simplex virus | inhibition | 10 µg/mL | cytopathic effect |  | Human amnion AV3 cells | 10% |
| CC(C)(O)c1cn(-c2cccc3ccccc23)nn1 | Candida parapsilosis | inhibition | 2048 µg/mL | broth dilution | URM 4970 |  | 0% |
| Oc1ccccc1N=Cc1ccc(F)cc1 | Cryptococcus gattii | MIC99 |  |  | 547/OTTI-97-PI-10 |  | 11.3 µg/mL |
| O=C(O)c1cc(S(=O)(=O)[O-])ccc1O | Herpes simplex virus | inhibition | 5 µg/mL | cytopathic effect |  | Human amnion AV3 cells | 0% |
| Oc1ccccc1N=Cc1ccc2c(c1)OCO2 | Cryptococcus gattii | MIC99 |  |  | ATCC 24065 |  | 8 µg/mL |
| C=CCc1ccc(O)c(OC)c1 | Candida tropicalis | MIC90 |  | turbidity | 3056 |  | 485 µg/mL |
| C=Cc1cn([C@@H]2O[C@H](CO)[C@@H](O)[C@@H]2O)c(=O)[nH]c1=O | Varicella zoster virus | inhibition | 0.01 µg/mL | plaque count | KANNO | HELF | 0% |
| CCOC(=O)c1ccc(OCCC2CCN(c3ccc(C)nn3)CC2)cc1 | Rhinovirus | EC50 |  | neutral red | B632 (LDL receptor group 1B) | KB | 0.008 µM |
| Cc1cc(-c2ccc(N=Nc3ccc4c(S(=O)(=O)O)cc(S(=O)(=O)O)c(N)c4c3O)c(C)c2)ccc1N=Nc1ccc2c(S(=O)(=O)O)cc(S(=O)(=O)O)c(N)c2c1O | Adenovirus | inhibition | 10 µg/mL | cytopathic effect | TYPE 3 | Human embryonic lung cells | 0% |
| O=c1[nH]c(=O)n([C@H]2C[C@H](O)[C@@H](CO)O2)cc1/C=C/Br | Varicella zoster virus | inhibition | 0.01 µg/mL | plaque count | YS | HELF | 48% |
| CC(C)(O)c1cn(-c2ccc3ccccc3c2)nn1 | Candida parapsilosis | inhibition | 2048 µg/mL | broth dilution | URM 4970 |  | 0% |
| Nc1ccc(S(=O)(=O)[O-])c2c(S(=O)(=O)[O-])ccc(O)c12 | Herpes simplex virus | inhibition | 10 µg/mL | cytopathic effect |  | Human conjunctiva cells | 0% |
| CCC(CC)[C@H](NC(C)=O)[C@@H]1[C@H](O)[C@@H](C(=O)O)C[C@H]1N=C(N)N | Influenza B virus | EC50 |  | plaque count | HONG KONG/5/72 | MDCK | 0.041 µM |
| Nc1nc2c(ncn2COCCO)c(=O)[nH]1 | Varicella zoster virus | inhibition | 0.1 µg/mL | plaque count | YS | HELF | 0% |
| COc1cc(-c2ccc(N=Nc3ccc4c(S(=O)(=O)O)cc(S(=O)(=O)O)c(N)c4c3O)c(OC)c2)ccc1N=Nc1ccc2c(S(=O)(=O)O)cc(S(=O)(=O)O)c(N)c2c1O | Adenovirus | inhibition | 5 µg/mL | cytopathic effect | TYPE 3 | Human embryonic lung cells | 0% |

The first 4 rows once more:

{"compound": "Nc1c(S(=O)(=O)[O-])cc2cc(S(=O)(=O)[O-])ccc2c1O", "organism": "Herpes simplex virus", "measure": "inhibition", "tested at": "50 µg/mL", "method": "cytopathic effect", "cells": "Human conjunctiva cells", "value": "0%"}
{"compound": "CCOC(=O)c1cnc(NCCCCNc2ccnc3cc(Cl)ccc23)nc1C", "organism": "Cryptococcus gattii", "measure": "MIC99", "strain or isolate": "196L/03", "value": "8 µg/mL"}
{"compound": "NCCS(=O)(=O)O", "organism": "Adenovirus", "measure": "inhibition", "tested at": "5 µg/mL", "method": "cytopathic effect", "strain or isolate": "TYPE 3", "cells": "Human embryonic lung cells", "value": "10%"}
{"compound": "CC(C)(O)c1cn(-c2ccc([N+](=O)[O-])cc2)nn1", "organism": "Candida parapsilosis", "measure": "inhibition", "tested at": "2048 µg/mL", "method": "broth dilution", "strain or isolate": "URM 4984", "value": "0%"}

An empty or dashed field is not shown. MIC50, MIC90 and the like: level of inhibition, or share of isolates inhibited. Conditions beyond the fields shown may differ between rows. ECn is the concentration giving n% inhibition of infection, replication or growth.